Measurements: paper PMC3656097 (2013)

Tests used:
[1] = target: T1, recombinant binding domain of BoNT/A, His-rHC/A (Clostridium botulinum)
[2] = target: T1, recombinant binding domain of BoNT/A, …; remark: listed apart in the source

Binder	Kd [1] [nM]	koff [2] [s⁻¹]
FGFR3b Loop 1,2,3 (short version) (domain or fragment) SLGTEQRVVGRAAEVPGPEPGQQEQLVFGSGDAVELSCPPPGGGPMGPTVWVKDGTGLVPSERVLVGPQRLQVLNASHEDSGAYSCRQRLTQRVLCHFSVRVTDAPSSGDDEDGEDEAEDTGVDTGAPYWTRPERMDKKLLAVPAANTVRFRCPAAGNPTPSISWLKNGREFRGEHRIGGIKLRHQQWSLVMESVVPSDRGNYTCVVENKFGSIRQTYTLDVLERSPHRPILQAGLPANQTAVLGSDVEFHCKVYSDAQPHIQWLKHVEVNGSKVGPDGTPYVTVLKSWISESVEADVRLRLANVSERDGGEYLCRATNFIGVAEKAFWLSVHG	11.7	
FGFR3c Loop 3 (domain or fragment) PILQAGLPANQTAVLGSDVEFHCKVYSDAQPHIQWLKHVEVNGSKVGPDGTPYVTVLKTAGANTTDKELEVLSLHNVTFEDAGEYTCLAGNSIGFSHHSAWLV	333	
FGFR3c Loop 1,2,3 (long version) (domain or fragment) ESLGTEQRVVGRAAEVPGPEPGQQEQLVFGSGDAVELSCPPPGGGPMGPTVWVKDGTGLVPSERVLVGPQRLQVLNASHEDSGAYSCRQRLTQRVLCHFSVRVTDAPSSGDDEDGEDEAEDTGVDTGAPYWTRPERMDKKLLAVPAANTVRFRCPAAGNPTPSISWLKNGREFRGEHRIGGIKLRHQQWSLVMESVVPSDRGNYTCVVENKFGSIRQTYTLDVLERSPHRPILQAGLPANQTAVLGSDVEFHCKVYSDAQPHIQWLKHVEVNGSKVGPDGTPYVTVLKTAGANTTDKELEVLSLHNVTFEDAGEYTCLAGNSIGFSHHSAWLVVLPAEEELVEADEAGSVYAG	28.7	
FGFR3c Loop 1,2,3 (short version) (domain or fragment) SLGTEQRVVGRAAEVPGPEPGQQEQLVFGSGDAVELSCPPPGGGPMGPTVWVKDGTGLVPSERVLVGPQRLQVLNASHEDSGAYSCRQRLTQRVLCHFSVRVTDAPSSGDDEDGEDEAEDTGVDTGAPYWTRPERMDKKLLAVPAANTVRFRCPAAGNPTPSISWLKNGREFRGEHRIGGIKLRHQQWSLVMESVVPSDRGNYTCVVENKFGSIRQTYTLDVLERSPHRPILQAGLPANQTAVLGSDVEFHCKVYSDAQPHIQWLKHVEVNGSKVGPDGTPYVTVLKTAGANTTDKELEVLSLHNVTFEDAGEYTCLAGNSIGFSHHSAWLV	25.4	
FGFR3b Loop 1,2,3 (long version) (domain or fragment) ESLGTEQRVVGRAAEVPGPEPGQQEQLVFGSGDAVELSCPPPGGGPMGPTVWVKDGTGLVPSERVLVGPQRLQVLNASHEDSGAYSCRQRLTQRVLCHFSVRVTDAPSSGDDEDGEDEAEDTGVDTGAPYWTRPERMDKKLLAVPAANTVRFRCPAAGNPTPSISWLKNGREFRGEHRIGGIKLRHQQWSLVMESVVPSDRGNYTCVVENKFGSIRQTYTLDVLERSPHRPILQAGLPANQTAVLGSDVEFHCKVYSDAQPHIQWLKHVEVNGSKVGPDGTPYVTVLKSWISESVEADVRLRLANVSERDGGEYLCRATNFIGVAEKAFWLSVHGPRAAEEELVEADEAGSVYAG	11.9	
FGFR3c Loop 2,3 (domain or fragment) PYWTRPERMDKKLLAVPAANTVRFRCPAAGNPTPSISWLKNGREFRGEHRIGGIKLRHQQWSLVMESVVPSDRGNYTCVVENKFGSIRQTYTLDVLERSPHRPILQAGLPANQTAVLGSDVEFHCKVYSDAQPHIQWLKHVEVNGSKVGPDGTPYVTVLKTAGANTTDKELEVLSLHNVTFEDAGEYTCLAGNSIGFSHHSAWLV	78	
FGFR3b Loop 3 (domain or fragment) PILQAGLPANQTAVLGSDVEFHCKVYSDAQPHIQWLKHVEVNGSKVGPDGTPYVTVLKSWISESVEADVRLRLANVSERDGGEYLCRATNFIGVAEKAFWLS	262	0.000406
